# Share of PSTVd loop 15 variants by leaf site

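A pool of all variants was put on leaves of three Nicotiana benthamiana plants. Samples came from the inoculated region at 5 days, the leaf margin at 10 and upper systemic leaves at 12.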

PSTVd intermediate strain, loop 15: wild type GGAAACCGCUACUAC, pool pattern GGAAACCGNNNNNNC; upper and lower strand joined, each 5' to 3', the first 7 letters being the upper strand, closing pairs included.

Values are reads per thousand in the sample; higher means more abundant, 0 means not found. Each site shows the three plants. "Pool" is the share in the plasmid pool used as inoculum, on the same scale. The inoculated region was read from the minus strand, the other sites from the plus strand.

{"sequence": "GGAAACCGCGGCAGC", "pool": "0.224", "inoculated region": "0.0655 0.161 0.171", "leaf margin": "0 0.0223 0.0200", "systemic leaves": "0.0161 0 0"}
{"sequence": "GGAAACCGCGGCAUC", "pool": "0.272", "inoculated region": "0.0983 0.129 0.0952", "leaf margin": "0 0 0", "systemic leaves": "0 0 0"}
{"sequence": "GGAAACCGCGGCCAC", "pool": "0.128", "inoculated region": "0.0819 0.0803 0.0190", "leaf margin": "0 0 0.0200", "systemic leaves": "0 0 0"}
{"sequence": "GGAAACCGCGGCCCC", "pool": "0.224", "inoculated region": "0.0655 0.0482 0.0762", "leaf margin": "0 0 0", "systemic leaves": "0 0 0"}
{"sequence": "GGAAACCGCGGCCGC", "pool": "0.112", "inoculated region": "0.0819 0.0964 0.0952", "leaf margin": "0.0162 0 0", "systemic leaves": "0.0161 0 0"}
{"sequence": "GGAAACCGCGGCCUC", "pool": "0.304", "inoculated region": "0.147 0.161 0.0571", "leaf margin": "0.0162 0 0", "systemic leaves": "0 0 0.0228"}
{"sequence": "GGAAACCGCGGCGAC", "pool": "0.256", "inoculated region": "0.0983 0.112 0.248", "leaf margin": "0 0 0", "systemic leaves": "0 0 0"}
{"sequence": "GGAAACCGCGGCGCC", "pool": "0.192", "inoculated region": "0.262 0.241 0.286", "leaf margin": "0 0 0", "systemic leaves": "0 0 0"}
{"sequence": "GGAAACCGCGGCGGC", "pool": "0.0960", "inoculated region": "0.0328 0.112 0.0762", "leaf margin": "0.0162 0 0", "systemic leaves": "0.0161 0 0"}
{"sequence": "GGAAACCGCGGCGUC", "pool": "0.272", "inoculated region": "0.164 0.0803 0.0762", "leaf margin": "0 0 0.0200", "systemic leaves": "0 0 0"}
{"sequence": "GGAAACCGCGGCUAC", "pool": "0.336", "inoculated region": "0.393 0.514 0.685", "leaf margin": "0.0808 0.0891 0.120", "systemic leaves": "0.0483 0 0"}
{"sequence": "GGAAACCGCGGCUCC", "pool": "0.0640", "inoculated region": "0.344 0.305 0.343", "leaf margin": "0.0162 0 0", "systemic leaves": "0.0161 0.0151 0"}
{"sequence": "GGAAACCGCGGCUGC", "pool": "0.304", "inoculated region": "0.0491 0.145 0.0381", "leaf margin": "0 0 0.0200", "systemic leaves": "0.0161 0 0"}
{"sequence": "GGAAACCGCGGCUUC", "pool": "0.240", "inoculated region": "0.164 0.112 0.0571", "leaf margin": "0 0.0223 0", "systemic leaves": "0 0 0"}
{"sequence": "GGAAACCGCGGGAAC", "pool": "0.288", "inoculated region": "0.131 0.0964 0.133", "leaf margin": "0 0 0", "systemic leaves": "0 0 0"}
{"sequence": "GGAAACCGCGGGACC", "pool": "0.272", "inoculated region": "0.0655 0.129 0.0952", "leaf margin": "0.0162 0 0.0200", "systemic leaves": "0 0 0"}
{"sequence": "GGAAACCGCGGGAGC", "pool": "0.192", "inoculated region": "0.147 0.0803 0.114", "leaf margin": "0.0162 0.0445 0.0601", "systemic leaves": "0 0 0"}
{"sequence": "GGAAACCGCGGGAUC", "pool": "0.224", "inoculated region": "0.0819 0.129 0.114", "leaf margin": "0 0 0", "systemic leaves": "0 0 0"}
{"sequence": "GGAAACCGCGGGCAC", "pool": "0.208", "inoculated region": "0.0819 0.161 0.114", "leaf margin": "0 0 0", "systemic leaves": "0.0322 0 0"}
{"sequence": "GGAAACCGCGGGCCC", "pool": "0.176", "inoculated region": "0.0328 0.0964 0.114", "leaf margin": "0.0323 0.0445 0", "systemic leaves": "0 0 0"}
{"sequence": "GGAAACCGCGGGCGC", "pool": "0.320", "inoculated region": "0.0819 0.0482 0.0571", "leaf margin": "0.0162 0 0", "systemic leaves": "0 0 0"}
{"sequence": "GGAAACCGCGGGCUC", "pool": "0.240", "inoculated region": "0.0983 0.129 0.0952", "leaf margin": "0.0323 0 0.0601", "systemic leaves": "0 0 0.0228"}
{"sequence": "GGAAACCGCGGGGAC", "pool": "0.256", "inoculated region": "0.0983 0.129 0.0762", "leaf margin": "0 0 0", "systemic leaves": "0 0 0"}

The first 3 entries again:

sequence,pool,inoculated region,leaf margin,systemic leaves
GGAAACCGCGGCAGC,0.224,0.0655 0.161 0.171,0 0.0223 0.0200,0.0161 0 0
GGAAACCGCGGCAUC,0.272,0.0983 0.129 0.0952,0 0 0,0 0 0
GGAAACCGCGGCCAC,0.128,0.0819 0.0803 0.0190,0 0 0.0200,0 0 0

Wild type was 33.9 per thousand in the pool and the most common sequence in every sample (inoculated region 202, 200, 159; leaf margin 724, 746, 710; systemic leaves 856, 883, 880). The authors trace changes outside the varied positions to PCR and sequencing errors or to mutation in the plant; presence does not show that a variant is infectious alone. Samples held 43,870 to 66,106 reads, so the smallest values rest on one or two reads.

Reference: Wu et al. 2024, doi:10.1371/journal.ppat.1012142.